Literature values in patent publication US20150045422A1 (priority 2005, published 2015).

What was measured:
Conditions in all cases: Table 3
HEp2 (epidermoid) = tested on: HEp2 (epidermoid)
HL (lymphocyte) = tested on: HL (lymphocyte)
HeLa (uterine) = tested on: HeLa (uterine)
HEK (kidney) = tested on: HEK (kidney)
[1] = tested on: Herpes Simplex Virus Type 2 (HSV2)

Row | Substance | PSR Potency in Human Cells (IC50) HEp2 (HEp2 (epidermoid)) | PSR Potency in Human Cells (IC50) HL (HL (lymphocyte)) | PSR Potency in Human Cells (IC50) HeLa (HeLa (uterine)) | PSR Potency in Human Cells (IC50) HEK (HEK (kidney)) | PSR Potency in Human Cells (IC50) HSV2 [1]
1 | Verrucarin A | 1 ng/mL | 3 ng/mL | 5 ng/mL | 2 ng/mL | 
2 | Roridin A | 2 ng/mL | 3 ng/mL | 3 ng/mL | 3 ng/mL | 1.4 ng/mL
3 | Satratoxin G | 2 ng/mL |  |  |  | 1.5 ng/mL
